Pooled drug test results. Numbers come from NIAID ChemDB, via PubChem.

All rows: growth or infection tests

Neighbouring rows are from separate reports. A number after MIC or MFC names an inhibition level or a share of isolates. ECn is the concentration giving n% inhibition of infection, replication or growth. An empty or dashed field is not shown. Inhibition is in % at the dose shown (toxicity tests: loss of growth or viability).

| compound | measure | dose | method | agent | strain | result |
|---|---|---|---|---|---|---|
| Cn1ncc2c1C(=O)c1cccc(Br)c1C2=O | inhibition | 50 µM | - | Cryptosporidium parvum | - | 95% |
| Cc1nc(NCCCCNc2ccnc3cc(Cl)ccc23)nc(-c2ccccc2)c1C(=O)OC(C)C | MIC99 | - | - | Cryptococcus gattii | 135L/03 | 8 µg/mL |
| Cn1cc2c(n1)C(=O)c1cc3ccccc3c(O)c1C2=O | inhibition | 10 µM | - | Cryptosporidium parvum | - | <10% |
| C[C@@H](c1ncncc1F)[C@](O)(Cn1cncn1)c1ccc(F)cc1F | MIC90 | - | broth dilution | Cryptococcus gattii | VG IIc | 0.5 µg/mL |
| Cc1cccc2c1C(=O)c1cnn(C)c1C2=O | EC50 | - | - | Cryptosporidium parvum | - | >100 µM |
| NCCCC[C@H](NC(=O)[C@H](CCCN=C(N)N)NC(=O)[C@H](CCCN=C(N)N)NC(=O)[C@H](CCCCN)NC(=O)[C@H](CCCCN)NC(=O)[C@@H](N)CCCCN)C(=O)N[C@@H](CCCN=C(N)N)C(=O)O | inhibition | 50 µM | - | Cryptococcus neoformans | ATCC 32264 | 19% |
| COc1cc(O)c2c(O)c(C(=O)c3ccccc3)oc2c1 | inhibition | 25 µM | - | Cryptosporidium parvum | - | 14% |
| CCOC(=O)c1c(C)nc(NCCCCNc2ccnc3cc(Cl)ccc23)nc1-c1ccccc1[N+](=O)[O-] | MIC99 | - | - | Cryptococcus gattii | ATCC 32608 | 16 µg/mL |
| CC1(C)O[C@H]2[C@H](O)[C@@H](N=[N+]=[N-])C=C(c3ccc(C=O)cc3)[C@H]2O1 | inhibition | 31.25 µg/mL | broth dilution / turbidity | Cryptococcus neoformans | ATCC 32264 | 0% |
| Oc1ccccc1C=Nc1ccccc1O | MIC99 | - | - | Cryptococcus gattii | L-28/02 | 5.7 µg/mL |
| CCn1nc(Cc2ccccc2)c2c1C(=O)c1c(OC(C)=O)c(C)c(C)c(OC(C)=O)c1C2=O | inhibition | 50 µM | - | Cryptosporidium parvum | - | <10% |
| COc1cc(/C=C2\Oc3cc(O)cc(O)c3C2=O)ccc1O | inhibition | 25 µM | - | Cryptosporidium parvum | - | 45% |
| Oc1ccc(O)c(C=Nc2ccccc2O)c1 | MIC99 | - | - | Cryptococcus neoformans | LMM 820 | 5.7 µg/mL |
| CCn1nc(C)c2c1C(=O)c1ccccc1C2=O | EC50 | - | - | Cryptosporidium parvum | - | >100 µM |
| Cc1nc(NCCCCNc2ccnc3cc(Cl)ccc23)nc(-c2ccccc2[N+](=O)[O-])c1C(=O)OC(C)C | MIC99 | - | - | Cryptococcus gattii | 23/10993 | 5.7 µg/mL |
| C[C@@H](c1ncncc1F)[C@](O)(Cn1cncn1)c1ccc(F)cc1F | MIC | - | broth dilution | Cryptococcus gattii | ICB 107 | 1 µg/mL |
| COc1cc(/C=C2\Oc3cc(O)cc(O[C@@H]4O[C@H](CO)[C@@H](O)[C@H](O)[C@H]4O)c3C2=O)cc(OC)c1OC(C)=O | inhibition | 25 µM | - | Cryptosporidium parvum | - | 3% |
| CC(=O)Oc1cccc2c1C(=O)c1c(cnn1C)C2=O | inhibition | 100 µM | - | Cryptosporidium parvum | - | 100% |
| CCOC(=O)c1c(C)nc(OCCCNc2ccnc3cc(Cl)ccc23)nc1-c1ccccc1 | MIC99 | - | - | Cryptococcus gattii | LMM 818 | 11.3 µg/mL |
| O=C1/C(=C/c2ccc(O)cc2O)Oc2cc(O)ccc21 | inhibition | 10 µM | - | Cryptosporidium parvum | - | 0% |
| Oc1ccccc1N=Cc1ccccc1 | MIC99 | - | - | Cryptococcus gattii | 547/OTTI-97-PI-10 | 11.3 µg/mL |
| Cn1ncc2c1C(=O)c1c(O)c3c(c(O)c1C2=O)CCCC3 | inhibition | 10 µM | - | Cryptosporidium parvum | - | <10% |
| COc1ccc(/C=C2\Oc3cc(O)ccc3C2=O)cc1OC | inhibition | 50 µM | - | Cryptosporidium parvum | - | 93% |

Repeating the first 2 entries:

{"compound": "Cn1ncc2c1C(=O)c1cccc(Br)c1C2=O", "measure": "inhibition", "dose": "50 µM", "agent": "Cryptosporidium parvum", "result": "95%"}
{"compound": "Cc1nc(NCCCCNc2ccnc3cc(Cl)ccc23)nc(-c2ccccc2)c1C(=O)OC(C)C", "measure": "MIC99", "agent": "Cryptococcus gattii", "strain": "135L/03", "result": "8 µg/mL"}